What was measured:
[1] = system: target-expressing SKOV3 tumors; conditions: mouse, in vivo
[2] = Stability of purified, formulated product at room temperature (HPLC); format: physicochemical; conditions: formulated in Dulbecco's phosphate buffered saline pH 6-6.5, room temperature, RCP by HPLC

Substance	Tumor: blood ratio [1]	time found to be stable [2]
Z00477 (SEQ. ID No. 3) His6 (SEQ ID NO: 7)tagged: His6-tagged Z00477 polypeptide labeled with the fac-[99mTc(CO)3]+ core	more than 8	
^67Ga-NOTA Z00477 (SEQ. ID No. 3): Z00477 polypeptide conjugated to Mal-NOTA chelator and labeled with 67Ga		at least 2 hr

Source: US20130295010A1, “HER2 BINDING PEPTIDES LABELLED WITH A 18F - CONTAINING ORGANOSILICON COMPOUND” (priority 2010, published 2013)
